Source: PubChem BioAssay AID624099 (ICCB-Longwood, 2012)
Test: 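Human genes that papillomavirus E2 requires to repress the HPV18 LCR promoter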 (primary screen). Cell system: human C33A cervical carcinoma cells (HPV-negative) stably expressing BPV1 E2 and an HPV18 LCR luciferase reporter. Knock-down reagent: siRNA pool against human genes, 40 nM. Timing: 72 h. Detection: 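HPV18 LCR reporter light per well, converted to plate-wise z-scores that exclude control wells, and averaged over triplicate plates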. Reading the numbers: mean z-score and z-score: higher = stronger reporter signal, weaker E2 silencing. Active means: 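Mean z ≥ 2 together with z ≥ 2 in two or more of the three replicates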.
Shown is an unselected part of about 21,000 deposited reagents. Over the whole deposit, 497 (2.4%) are marked active. 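Higher z means weaker E2 silencing; only reporter increases were scored, and knock-downs that hurt cell survival may mask genuine repressor factors.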

target	PubChem SID	mean z-score	z-score, replicate A	z-score, replicate B	z-score, replicate C	activity call
CNTNAP3 (GeneID 79937)	SID134315323	1.13	1.34	1.32	0.72	inactive
UFM1 (GeneID 51569)	SID134324626	0.23	0.38	0.03	0.29	inactive
LOC389048 (retired record) (GeneID 389048)	SID134327222	-1.19	-0.9	-1.37	-1.31	inactive
COX5B (GeneID 1329)	SID134317849	0.72	0.56	0.58	1.01	inactive
LOC401126 (retired record) (GeneID 401126)	SID134327408	-0.95	-0.97	-1.21	-0.67	inactive
SLC43A3 (GeneID 29015)	SID134318022	-0.73	-0.62	-0.64	-0.92	inactive
IQCH (GeneID 64799)	SID56479187	-0.42	-0.3	-0.73	-0.24	inactive
ZNF529 (GeneID 57711)	SID134318366	-0.1	-0.31	0.11	-0.08	inactive
AKAP12 (GeneID 9590)	SID134314828	-0.6	-0.92	-0.38	-0.49	inactive
DEPDC5 (GeneID 9681)	SID134324358	2.19	2.28	2.26	2.03	active
TIMM17A (GeneID 10440)	SID134316998	0.47	0.53	0.59	0.3	inactive
CCNQP1 (GeneID 339521)	SID134325287	-0.39	-0.29	-0.52	-0.35	inactive
FUT2 (GeneID 2524)	SID134313832	-0.25	-0.45	-0.17	-0.13	inactive
OR2W5 (GeneID 441932)	SID134329874	-0.29	-0.24	-0.26	-0.37	inactive
CARMIL2 (GeneID 146206)	SID134325445	-0.08	-0.24	-0.42	0.43	inactive
TRMT11 (GeneID 60487)	SID134318171	-0.22	-0.61	0.18	-0.22	inactive
TAMM41 (GeneID 132001)	SID134320522	-0.55	-0.59	-0.48	-0.57	inactive
NCKAP1 (GeneID 10787)	SID134315135	1.63	1.94	1.48	1.47	inactive
ABTB2 (GeneID 25841)	SID134320652	0.18	0.29	0.13	0.11	inactive
PGM2L1 (GeneID 283209)	SID134322290	-0.24	-0.13	-0.45	-0.14	inactive
NFKBIZ (GeneID 64332)	SID134317721	-0.26	-0.18	-0.38	-0.24	inactive
LGALS9 (GeneID 3965)	SID134315667	-1.48	-1.73	-1.28	-1.44	inactive
LINC01565 (GeneID 23434)	SID134323277	-0.75	-1.04	-0.61	-0.59	inactive
STARD6 (GeneID 147323)	SID134320859	-0.16	-0.45	-0.27	0.23	inactive
PGLYRP3 (GeneID 114771)	SID134313474	2.2	2.23	2.09	2.27	active
DHX58 (GeneID 79132)	SID134315081	-0.34	-0.42	-0.09	-0.51	inactive
MED10 (GeneID 84246)	SID134318922	-0.1	0.08	0.1	-0.49	inactive
AVEN (GeneID 57099)	SID134324707	-0.77	-0.9	-0.61	-0.8	inactive
NEUROD6 (GeneID 63974)	SID134313566	-0.8	-1.3	-1.08	-0.01	inactive
HCFC1 (GeneID 3054)	SID134323708	-0.91	-1.08	-0.78	-0.86	inactive
TMEM95 (GeneID 339168)	SID134325076	1.55	1.82	1.26	1.58	inactive
STAT4 (GeneID 6775)	SID134316102	-0.98	-1.01	-1.02	-0.91	inactive
GARS1 (GeneID 2617)	SID134315987	1.46	1.38	1.78	1.21	inactive
LINC02153 (GeneID 286114)	SID134326394	-0.25	-0.24	-0.03	-0.49	inactive
C11orf71 (GeneID 54494)	SID134324209	0.46	0.4	0.51	0.45	inactive
HSD3B2 (GeneID 3284)	SID134316806	-1.5	-1.68	-1.35	-1.46	inactive
PEX14 (GeneID 5195)	SID134316938	2.14	2.27	2.17	1.97	active
LOC400748 (GeneID 400748)	SID134327034	-0.93	-0.69	-0.91	-1.19	inactive
PKHD1 (GeneID 5314)	SID134321174	-0.65	-0.8	-0.74	-0.42	inactive
CIRBP-AS1 (GeneID 148046)	SID134320207	0.11	0.42	0.14	-0.23	inactive
LOC129026 (GeneID 129026)	SID134315301	-0.34	-0.55	-0.2	-0.26	inactive
CASP6 (GeneID 839)	SID134310443	-0.38	-0.83	-0.56	0.25	inactive
TRMT2B (GeneID 79979)	SID134322549	0.61	0.84	0.5	0.5	inactive
SYNJ2 (GeneID 8871)	SID134316886	0.54	0.35	0.47	0.79	inactive
LSM5 (GeneID 23658)	SID134323336	-1.48	-1.89	-1.19	-1.36	inactive
PIP5K1P1 (GeneID 206426)	SID56478869	-0.69	-0.4	-0.77	-0.91	inactive
ARHGEF18 (GeneID 23370)	SID134314382	0.53	0.37	0.66	0.57	inactive
SEC14L4 (GeneID 284904)	SID134323050	0.56	0.54	0.51	0.63	inactive
FAM161A (GeneID 84140)	SID134325487	1.23	1.2	1.26	1.23	inactive
SCYL1 (GeneID 57410)	SID56479045	-0.24	0	-0.42	-0.3	inactive
MTG1 (GeneID 92170)	SID134319560	0.9	1.29	0.94	0.47	inactive
LCK (GeneID 3932)	SID56478529	0.42	0.47	0.14	0.65	inactive
NIN (GeneID 51199)	SID134322942	2.52	2.95	2.54	2.08	active
KIAA1328 (GeneID 57536)	SID134325688	0.81	0.54	0.85	1.02	inactive
IL9R (GeneID 3581)	SID134312932	-0.77	-0.78	-0.85	-0.69	inactive
PI3 (GeneID 5266)	SID134322880	-0.72	-0.64	-0.65	-0.86	inactive
SRPK3 (GeneID 26576)	SID56478891	1.32	1.58	1.24	1.14	inactive
GALNT17 (GeneID 64409)	SID134317260	0.17	0.36	-0.11	0.25	inactive
CLDN16 (GeneID 10686)	SID134316575	-0.69	-0.89	-0.64	-0.53	inactive
TSC2 (GeneID 7249)	SID134309813	-0.01	0.39	-0.38	-0.04	inactive
MFSD6L (GeneID 162387)	SID134320622	0.17	-0.08	0.31	0.29	inactive
SLC35A3 (GeneID 23443)	SID134312585	-0.56	-0.66	-0.62	-0.39	inactive
GAPVD1 (GeneID 26130)	SID134326473	-0.53	-0.5	-0.63	-0.46	inactive
SCGB3A1 (GeneID 92304)	SID134319197	0.62	0.72	0.54	0.59	inactive
EIF1B (GeneID 10289)	SID134323744	0.3	0.24	0.24	0.42	inactive
SLC35B2 (GeneID 347734)	SID134312589	1.33	1.18	1.32	1.49	inactive
PARN (GeneID 5073)	SID134315693	-0.22	-0.33	-0.34	0.01	inactive
LINC01226 (GeneID 284551)	SID134327035	-0.75	-0.9	-0.73	-0.62	inactive
SPAG17 (GeneID 200162)	SID134329454	-0.4	-0.53	-0.68	0	inactive
SERTAD1 (GeneID 29950)	SID134324142	1.24	1.29	1.39	1.04	inactive
BZW2 (GeneID 28969)	SID134324255	0.39	0.11	0.57	0.48	inactive
TNFSF9 (GeneID 8744)	SID134315856	0.89	0.84	0.87	0.97	inactive
LOC387854 (retired record) (GeneID 387854)	SID134328354	-0.14	-0.38	0.11	-0.13	inactive

In a second layout: 9 of the entries above
| target | PubChem SID | mean z-score | z-score, replicate A | z-score, replicate B | z-score, replicate C | activity call |
| --- | --- | --- | --- | --- | --- | --- |
| PGLYRP3 (GeneID 114771) | SID134313474 | 2.2 | 2.23 | 2.09 | 2.27 | active |
| DHX58 (GeneID 79132) | SID134315081 | -0.34 | -0.42 | -0.09 | -0.51 | inactive |
| MED10 (GeneID 84246) | SID134318922 | -0.1 | 0.08 | 0.1 | -0.49 | inactive |
| AVEN (GeneID 57099) | SID134324707 | -0.77 | -0.9 | -0.61 | -0.8 | inactive |
| NEUROD6 (GeneID 63974) | SID134313566 | -0.8 | -1.3 | -1.08 | -0.01 | inactive |
| HCFC1 (GeneID 3054) | SID134323708 | -0.91 | -1.08 | -0.78 | -0.86 | inactive |
| TMEM95 (GeneID 339168) | SID134325076 | 1.55 | 1.82 | 1.26 | 1.58 | inactive |
| STAT4 (GeneID 6775) | SID134316102 | -0.98 | -1.01 | -1.02 | -0.91 | inactive |
| GARS1 (GeneID 2617) | SID134315987 | 1.46 | 1.38 | 1.78 | 1.21 | inactive |
